Results of unrelated studies side by side (data: NIAID ChemDB).

Shared fields: growth or infection tests

Zones are inhibition diameters on agar. An empty or dashed field is not shown. MIC50, MIC90 and the like: level of inhibition, or share of isolates inhibited. Rows are shuffled and stem from different studies. Percent inhibition refers to the dose given; in toxicity tests it is the harm to the cells.

| smiles | tested at | strain | measure | changes | method | conditions | species | value |
|---|---|---|---|---|---|---|---|---|
| CC1CN(c2c(F)cc3c(=O)c(C(=O)O)cn(C4CC4)c3c2F)CC(C)N1 | - | KD1163 (GRYA+) | MIC99 | - | - | - | Mycobacterium smegmatis | 0.049 µg/mL |
| Cc1nn(-c2ccccc2)c2c1C(c1cn(-c3ccccc3)nc1-c1ccc(F)cc1)C1=C(NC(C)(c3cc(O)cc(O)c3)NC1=O)O2 | 0.1 mg/mL | NCIM 5138 | zone | - | agar diffusion / agar | - | Mycobacterium smegmatis | 4.1 mm |
| COc1c(N2CCNCC2)c(F)cc2c(=O)c(C(=O)O)cn(C3CC3)c12 | - | KD1987 (GYRA A91V) | MIC99 | - | - | - | Mycobacterium smegmatis | 0.41 µg/mL |
| CN1CC2=C(C(=O)c3ccccc3C2=O)C12C(=O)Nc1ccc(I)cc12 | - | - | MIC | - | agar diffusion | - | Mycobacterium luteus | 15.62 µg/mL |
| CN(C)c1cc(NC(=O)CNC(C)(C)C)c(O)c2c1C[C@H]1C[C@H]3[C@H](N(C)C)C(=O)C(C(N)=O)=C(O)[C@@]3(O)C(=O)C1=C2O | - | X14 | MIC | - | broth dilution | - | Mycobacterium massiliense | 1 µg/mL |
| Cc1nn(-c2ccccc2)c2c1C(c1cn(-c3ccccc3)nc1-c1ccc(Cl)cc1)C1=C(NC(C)(c3cc(O)ccc3Cl)NC1=O)O2 | 1 mg/mL | NCIM 5138 | zone | - | agar diffusion / agar | - | Mycobacterium smegmatis | 3.6 mm |
| CCOc1c(N2CCNCC2)c(F)cc2c(=O)c(C(=O)O)cn(C3CC3)c12 | - | ATCC 6841 | MIC | - | - | - | Mycobacterium fortuitum | 0.06 µg/mL |
| O=C(O)c1cn(C2CC2)c2c(F)c(N3CC4CC3CN4)c(F)cc2c1=O | - | 1915112 | MIC | - | - | - | Mycobacterium avium complex | 8 µg/mL |
| CO[C@@H]1C[C@@H](C[C@H]2CC[C@H](C)[C@H]([C@@H](C)C(=O)O)O2)O[C@]2(O[C@](C)([C@H]3CC[C@@](C)([C@@H]4O[C@@H]([C@H]5O[C@@](O)(CO)[C@H](C)C[C@@H]5C)C[C@@H]4C)O3)C[C@H]2C)[C@@H]1C | - | - | MIC | C330 deletion | resazurin | - | Mycobacterium aurum | 0.32 µg/mL |
| Cc1cc(NS(=O)(=O)c2ccc(NC(=O)Nc3ccc(S(=O)(=O)Nc4cc(C)on4)cc3)cc2)no1 | - | 235/80 | MIC100 | - | broth dilution / absorbance | 21 d | Mycobacterium kansasii | 2 µM |
| O=C(Nc1ccc(Br)cc1)c1cc(Cl)ccc1OP(=O)(Oc1ccccc1)Oc1ccccc1 | - | My 6509/96 | MIC | - | - | 14 d | Mycobacterium kansasii | 8 µM |
| CC(C)N1CCN(c2cc3c(cc2F)c(=O)c(C(=O)O)cn3C2CC2)CC1 | - | KD1163 (GRYA+) | MIC99 | - | - | - | Mycobacterium smegmatis | 0.16 µg/mL |
| CC(=O)N1C(=O)C2(C3=C(CN2C)C(=O)c2ccccc2C3=O)c2ccccc21 | - | - | MIC | - | agar diffusion | - | Mycobacterium luteus | 15.62 µg/mL |
| O=C(O)c1cn(C2CC2)c2c(F)c(N3CCNCC3)c(F)cc2c1=O | - | ATCC 6841 | MIC | - | - | - | Mycobacterium fortuitum | 0.06 µg/mL |
| C(=N\Nc1nncs1)/c1c[nH]c2ccccc12 | - | 1173P2 | MIC100 | - | broth dilution | 48 h | Mycobacterium bovis BCG | 7.81 µg/mL |
| COc1cc(Cc2cnc(N)nc2N)cc(OC)c1OC | - | Isolate 5155 | MBC | - | - | - | Mycobacterium ulcerans | >32 µg/mL |
| O=C(Nc1ccccc1)c1ccccc1OP(=O)(c1ccccc1)c1ccccc1 | - | My 6509/96 | MIC | - | - | 7 d | Mycobacterium kansasii | 250 µM |
| C[C@@H]1CN(c2c(F)c(N)c3c(=O)c(C(=O)O)cn(C4CC4)c3c2F)C[C@H](C)N1 | - | 12 | MIC | - | broth dilution | - | Mycobacterium avium complex | 0.12 µg/mL |
| O=S(=O)(c1ccccc1)n1cc(/C=N/Nc2nncs2)c2ccccc21 | - | 1173P2 | MIC100 | - | broth dilution | 48 h | Mycobacterium bovis BCG | 250 µg/mL |
| COc1ccc(-c2nn(-c3ccccc3)cc2C2C3=C(NC(C)(c4cc(O)ccc4Cl)NC3=O)Oc3c2c(C)nn3-c2ccccc2)cc1 | - | NCIM 2240 | MIC | - | agar diffusion / agar | - | Mycobacterium phlei | 1000 µg/mL |
| O=C(O)c1cn(C2CC2)c2c(F)c(N3CC4C(CO)C4C3)c(F)cc2c1=O | - | PI12/39 | MIC | - | - | - | Mycobacterium avium complex | 8 µg/mL |
| CN1CC2=C(C(=O)c3ccccc3C2=O)C12C(=O)N(Cc1ccccc1)c1ccccc12 | 50 µg/mL | - | zone | - | agar diffusion | - | Mycobacterium luteus | 9 mm |
| C[C@H]1NCc2cc(-c3ccc4c(=O)c(C(=O)O)cn(C5CC5)c4c3OC(F)F)ccc21 | - | A24001 | MIC | - | - | - | Mycobacterium smegmatis | 0.13 µg/mL |
| CC1CN(c2nc3c(cc2F)c(=O)c(C(=O)O)cn3C2CC2)CCN1 | - | ATCC 6841 | MIC | - | - | - | Mycobacterium fortuitum | 0.13 µg/mL |
| CCC1CN(c2cc3c(cc2F)c(=O)c(C(=O)O)cn3C2CC2)CCN1 | - | KD2003 (GYRA D95G) | MIC99 | - | - | - | Mycobacterium smegmatis | 3.8 µg/mL |
| CCN1CCN(c2nc3c(cc2F)c(=O)c(C(=O)O)cn3C2CC2)CC1 | - | ATCC 6841 | MIC | - | - | - | Mycobacterium fortuitum | 0.25 µg/mL |
| C=CCN1C(=O)C2(C3=C(CN2C)C(=O)c2ccccc2C3=O)c2ccccc21 | 50 µg/mL | - | zone | - | agar diffusion | - | Mycobacterium luteus | 10 mm |
| CC1CN(c2cc3c(cc2F)c(=O)c(C(=O)O)cn3C(C)(C)C)CCN1 | - | ATCC 6841 | MIC | - | - | - | Mycobacterium fortuitum | 0.03 µg/mL |
| CC[C@@H](CO)NCCN[C@@H](CC)CO | - | 155-4 | MIC | - | - | - | Mycobacterium avium complex | 3.8 µg/mL |
| CNC(=O)Nc1ccc(S(=O)(=O)Nc2cc(C)on2)cc1 | - | 235/80 | MIC100 | - | broth dilution / absorbance | 7 d | Mycobacterium kansasii | 32 µM |
| NNC(=S)N/N=C/c1cn(CC2CCCCC2)c2ccccc12 | - | 1173P2 | MIC100 | - | broth dilution | 24 h | Mycobacterium bovis BCG | >500 µg/mL |
| CCCCN1C(=O)C2(C3=C(CN2C)C(=O)c2ccccc2C3=O)c2ccccc21 | - | - | MIC | - | agar diffusion | - | Mycobacterium luteus | 250 µg/mL |
| CCN1CCN(c2c(F)cc3c(=O)c(C(=O)O)cn(C4CC4)c3c2F)CC1 | - | KD1163 (GRYA+) | MIC99 | - | - | - | Mycobacterium smegmatis | 0.1 µg/mL |
| CC[C@@H](C(=O)[C@@H](C)[C@@H](O)[C@H](C)[C@@H]1O[C@@H]([C@@H](CC)C(=O)O)CC[C@@H]1C)[C@H]1O[C@@]2(C=C[C@@H](O)[C@@]3(CC[C@@](C)([C@H]4CC[C@](O)(CC)[C@H](C)O4)O3)O2)[C@H](C)C[C@@H]1C | - | L948 | MIC | - | resazurin | - | Mycobacterium abscessus | >20 µg/mL |
| COc1c(N2CCNCC2)c(F)cc2c(=O)c(C(=O)O)cn(C3CC3)c12 | - | ATCC 6841 | MIC | - | - | - | Mycobacterium fortuitum | 0.06 µg/mL |
| CC[C@H]1OC(=O)[C@H](C)[C@@H](O[C@H]2C[C@@](C)(OC)[C@@H](O)[C@H](C)O2)[C@H](C)[C@@H](O[C@@H]2O[C@H](C)C[C@H](N(C)C)[C@H]2O)[C@](C)(OC)C[C@@H](C)C(=O)[C@H](C)[C@@H](O)[C@]1(C)O | - | X51 | MIC | - | broth dilution | - | Mycobacterium abscessus | 0.25 µg/mL |
| O=C(Nc1ccc(C(F)(F)F)cc1)c1cc(Br)ccc1OP(=O)(Oc1ccccc1)Oc1ccccc1 | - | My 6509/96 | MIC | - | - | 21 d | Mycobacterium kansasii | 4 µM |
| CCc1cc(C(N)=S)ccn1 | 2.5 µg/mL | Serovar 8 | inhibition | - | - | - | Mycobacterium avium intracellulare | 64% |
| CN[C@@H]1[C@H](O[C@H]2[C@H](O[C@H]3[C@H](O)[C@@H](O)[C@H](N=C(N)N)[C@@H](O)[C@@H]3N=C(N)N)O[C@@H](C)[C@]2(O)C=O)O[C@@H](CO)[C@H](O)[C@H]1O | - | Isolate C-43 | MIC | - | - | - | Mycobacterium avium complex | ≤12.5 µg/mL |
| CO[C@H]1/C=C/O[C@@]2(C)Oc3c(C)c(O)c4c(O)c(c(/C=N/N5CCN(C)CC5)c(O)c4c3C2=O)NC(=O)/C(C)=C\C=C\[C@H](C)[C@H](O)[C@@H](C)[C@@H](O)[C@@H](C)[C@H](OC(C)=O)[C@@H]1C | - | 10 isolates | MIC50 | - | - | - | Mycobacterium avium intracellulare | 0.5 µg/mL |
| COc1c(N2CCNC(C)C2)c(F)cc2c(=O)c(C(=O)O)cn(C3CC3)c12 | - | KD1163 (GRYA+) | MIC99 | - | - | - | Mycobacterium smegmatis | 0.03 µg/mL |
| Cc1cccc(Cn2cc(/C=N/Nc3nncs3)c3ccccc32)c1 | - | 1173P2 | MIC100 | - | broth dilution | 48 h | Mycobacterium bovis BCG | 62.5 µg/mL |
| O=C(Nc1ccc(C(F)(F)F)cc1)c1cc(Cl)ccc1OP(=O)(OCc1ccccc1)OCc1ccccc1 | - | My 6509/96 | MIC | - | - | 7 d | Mycobacterium kansasii | 16 µM |
| CCCCCCCNC(=O)Nc1ccc(S(=O)(=O)Nc2cc(C)on2)cc1 | - | 235/80 | MIC100 | - | broth dilution / absorbance | 14 d | Mycobacterium kansasii | 8 µM |
| CCN1CCN(c2c(F)cc3c(=O)c(C(=O)O)cn(C4CC4)c3c2OC)CC1 | - | KD1991 (GYRA D95Y) | MIC99 | - | - | - | Mycobacterium smegmatis | 0.81 µg/mL |
| Cc1cc(NS(=O)(=O)c2ccc(NC(=O)N(C(C)C)C(C)C)cc2)no1 | - | 235/80 | MIC100 | - | broth dilution / absorbance | 7 d | Mycobacterium kansasii | 250 µM |
| O=C1c2cc(Cl)ccc2OP(=O)(c2ccccc2)N1c1ccc(Cl)cc1 | - | My 235/80 | MIC | - | - | 14 d | Mycobacterium kansasii | 16 µM |
| Cc1cc(NS(=O)(=O)c2ccc(NC(=O)C(=O)Nc3ccc(S(=O)(=O)Nc4cc(C)on4)cc3)cc2)no1 | - | 6509/96 clinical isolate | MIC100 | - | broth dilution / absorbance | 21 d | Mycobacterium kansasii | 4 µM |
| Cc1nn(-c2ccccc2)c2c1C(c1cn(-c3ccccc3)nc1-c1ccc(F)cc1)C1=C(NC(C)(c3cc(O)c(Cl)c(O)c3)NC1=O)O2 | 1 mg/mL | NCIM 2240 | zone | - | agar diffusion / agar | - | Mycobacterium phlei | 2.5 mm |
| CC(C)N1CCN(c2c(F)cc3c(=O)c(C(=O)O)cn(C4CC4)c3c2F)CC1 | - | KD1991 (GYRA D95Y) | MIC99 | - | - | - | Mycobacterium smegmatis | 5.8 µg/mL |
| NCC1(O)CCN(c2c(F)cc3c(=O)c(C(=O)O)cn(N4CC4)c3c2F)C1 | - | 1172733 | MIC | - | - | - | Mycobacterium avium complex | 32 µg/mL |
| Nc1ccc(S(=O)(=O)c2ccc(N)cc2)cc1 | - | Isolate 94-539 | MBC | - | - | - | Mycobacterium ulcerans | 4 µg/mL |
| Cc1nn(-c2ccccc2)c2c1C(c1cn(-c3ccccc3)nc1-c1ccc(Cl)cc1)C1=C(NC(C)(c3cc(O)c(Cl)c(O)c3)NC1=O)O2 | 0.5 mg/mL | NCIM 5138 | zone | - | agar diffusion / agar | - | Mycobacterium smegmatis | 5.2 mm |
| O=C(O)c1cn(C2CC2)c2c(F)c(N3CCC(N4CCCC4)C3)c(F)cc2c1=O | - | 1915112 | MIC | - | - | - | Mycobacterium avium complex | 2 µg/mL |

For reference, 7 entries again:

smiles,tested at,strain,measure,changes,method,conditions,species,value
CCN1CCN(c2c(F)cc3c(=O)c(C(=O)O)cn(C4CC4)c3c2F)CC1,-,KD1163 (GRYA+),MIC99,-,-,-,Mycobacterium smegmatis,0.1 µg/mL
COc1c(N2CCNC(C)C2)c(F)cc2c(=O)c(C(=O)O)cn(C3CC3)c12,-,KD1163 (GRYA+),MIC99,-,-,-,Mycobacterium smegmatis,0.03 µg/mL
Cc1cc(NS(=O)(=O)c2ccc(NC(=O)Nc3ccc(S(=O)(=O)Nc4cc(C)on4)cc3)cc2)no1,-,235/80,MIC100,-,broth dilution / absorbance,21 d,Mycobacterium kansasii,2 µM
COc1ccc(-c2nn(-c3ccccc3)cc2C2C3=C(NC(C)(c4cc(O)ccc4Cl)NC3=O)Oc3c2c(C)nn3-c2ccccc2)cc1,-,NCIM 2240,MIC,-,agar diffusion / agar,-,Mycobacterium phlei,1000 µg/mL
CN1CC2=C(C(=O)c3ccccc3C2=O)C12C(=O)N(Cc1ccccc1)c1ccccc12,50 µg/mL,-,zone,-,agar diffusion,-,Mycobacterium luteus,9 mm
Cc1cc(NS(=O)(=O)c2ccc(NC(=O)C(=O)Nc3ccc(S(=O)(=O)Nc4cc(C)on4)cc3)cc2)no1,-,6509/96 clinical isolate,MIC100,-,broth dilution / absorbance,21 d,Mycobacterium kansasii,4 µM
CC[C@H]1OC(=O)[C@H](C)[C@@H](O[C@H]2C[C@@](C)(OC)[C@@H](O)[C@H](C)O2)[C@H](C)[C@@H](O[C@@H]2O[C@H](C)C[C@H](N(C)C)[C@H]2O)[C@](C)(OC)C[C@@H](C)C(=O)[C@H](C)[C@@H](O)[C@]1(C)O,-,X51,MIC,-,broth dilution,-,Mycobacterium abscessus,0.25 µg/mL